Measured values from several laboratories, pooled; numbers as filed in NIAID ChemDB.

Common to all: tests in culture; agent: Cytomegalovirus; cell line: HEL; read-out: EC50

Rows are shuffled and stem from different studies.

SMILES	strain or isolate	read by	value
CC1(C)[C@@H](CO)CC[C@@]1(C)Cn1cc(I)c(=O)[nH]c1=O	DAVIS	cytopathic effect	>50 µg/mL
Nc1nc2c(ncn2COCCO)c(=O)[nH]1	AD169	plaque count	30 µg/mL
COc1ccc2c(c1)OC1(C=C2)N(C)c2ccccc2C1(C)C	DAVIS	plaque count	>10.4 µM
O=c1[nH]c(=O)n([C@H]2C[C@H](O)[C@@H](CO)O2)cc1/C=C/Br	DAVIS	cytopathic effect	300 µg/mL
CC1(C)c2ccccc2N(c2ccccc2)C12C=Nc1c(ccc3ccccc13)O2	AD169	plaque count	>204.8 µM
CC1(C)[C@@H](CCO)C[C@H]1n1nnc2c(=O)[nH]cnc21	DAVIS	plaque count	>20 µg/mL
Nc1nc(N)c2ncn([C@H]3CCC[C@H]3CO)c2n1	DAVIS	plaque count	>50 µg/mL
Nc1ncnc2c1ncn2C[C@@H](CO)OCP(=O)(O)O	DAVIS	cytopathic effect	0.3 µg/mL
Nc1nc(F)nc2c1ncn2[C@@H]1C=C(CO)[C@@H](O)[C@H]1O	AD169	cytopathic effect	1.5 µg/mL
O=[N+]([O-])c1ccc(O)c(CSc2cccc[n+]2[O-])c1		cytopathic effect	>50 µg/mL
CC(=O)OCCOCN1c2nc(Cc3ccccc3)[nH]c2C(N)=NS1(=O)=O	AD169	plaque count	>50 µg/mL
Nc1nc2c(ccn2[C@H]2CO[C@@H](CO)C2)c(=O)[nH]1	DAVIS	cytopathic effect	>40 µg/mL
OC[C@H]1O[C@@H](c2cc(C(O)CBr)c(F)cc2F)C[C@@H]1O	AD169	cytopathic effect	>20 µg/mL
CN1c2ccc([N+](=O)[O-])cc2C(C)(C)C12C=Cc1ccccc1O2	DAVIS	plaque count	>49.8 µM
Nc1ncc2ncn([C@H]3CCC[C@H]3CO)c2n1	AD169	plaque count	>5 µg/mL
COc1ccc(CS(=O)(=O)c2cccc[n+]2[O-])cc1OC		cytopathic effect	>50 µg/mL
Nc1ncc2ncn(C[C@H]3CCC[C@H]3CO)c2n1	AD169	plaque count	>5 µg/mL
COc1ccc(OC)c(CS(=O)c2cccc[n+]2[O-])c1		cytopathic effect	>50 µg/mL
CC(C)CS[C@@H]1C[C@H](n2cnc3c(N)ncnc32)[C@@H](O)[C@H]1O	AD169	cytopathic effect	>200 µg/mL
Nc1nc(=O)n([C@@H]2O[C@H](CO)[C@@H](O)[C@@H]2F)cc1I	DAVIS	plaque count	0.6 µg/mL
COc1ccc(C)cc1CSc1cccc[n+]1[O-]		cytopathic effect	>50 µg/mL
CN1c2ccc(Cl)cc2C(C)(C)C12C=Cc1c(ccc3ccccc13)O2	DAVIS	plaque count	>44.2 µM
COC(=O)C(c1cc(C)ccc1C)S(=O)(=O)c1cccc[n+]1[O-]		cytopathic effect	>5 µg/mL
NC1=NS(=O)(=O)N(Cc2ccccc2)c2nc(Cc3ccccc3)[nH]c21	DAVIS	plaque count	6.1 µg/mL
N#C/C(=C/c1ccc(Cl)cc1Cl)Sc1cccc[n+]1[O-]		cytopathic effect	1.2 µg/mL
CN1c2ccc(Cl)cc2C(C)(C)C12C=Cc1cc([N+](=O)[O-])ccc1O2	DAVIS	plaque count	>1.8 µM
C#C[C@@H](O)C1=C[C@@H](n2cnc3c(N)ncnc32)[C@H](O)[C@@H]1O	AD169	cytopathic effect	>50 µg/mL
CC1(C)[C@@H](CCO)C[C@H]1n1cnc2c(=O)[nH]c(N)nc21	AD169	plaque count	>50 µg/mL
Cc1ccc(C)c(CSc2ncccc2O)c1		cytopathic effect	>5 µg/mL
Nc1nc2c(ncn2COC(CO)CO)c(=O)[nH]1	AD169	plaque count	7.9 µM
Nc1ccn(C[C@@H](CO)OCP(=O)(O)O)c(=O)n1	DAVIS	plaque count	0.1 µg/mL
C=C[C@@H](O)C1=C[C@@H](n2cnc3c(N)ncnc32)[C@H](O)[C@@H]1O	AD169	cytopathic effect	>50 µg/mL
Cc1cn([C@@H]2O[C@H](CO)[C@@H](O)[C@@H]2F)c(=O)[nH]c1=O	DAVIS	plaque count	0.7 µg/mL
OC[C@H]1O[C@@H](c2cc(C(O)CI)c(F)cc2F)C[C@@H]1O	AD169	cytopathic effect	>200 µg/mL
CC1(C)[C@@H](CCO)C[C@H]1n1cnc2c(N)nc(N)nc21	DAVIS	plaque count	>50 µg/mL
Cc1ccc(C)c(C(Sc2cccc[n+]2[O-])c2ccccc2)c1		cytopathic effect	>5 µg/mL
CN1c2ccccc2C(C)(C)C12C=Cc1cc([N+](=O)[O-])ccc1O2	DAVIS	plaque count	7.5 µM
Cc1cccc(CS(=O)c2cccc[n+]2[O-])c1		cytopathic effect	>20 µg/mL
Nc1nc(Cl)c2ccn([C@H]3CO[C@@H](CO)C3)c2n1	AD169	cytopathic effect	>10 µg/mL
CC1(C)[C@@H](CO)CC[C@@]1(C)Cn1cnc2c(Cl)ncnc21	AD169	cytopathic effect	>50 µg/mL
Nc1ncnc2c1ncn2[C@@H]1C=C(CO)[C@@H](O)[C@H]1O	AD169	cytopathic effect	0.3 µg/mL
Cc1ccc(C)c(CSc2c(O)ccc[n+]2[O-])c1		cytopathic effect	>5 µg/mL
Nc1nc2c(ncn2COC2COP(=O)(O)OC2)c(=O)[nH]1	AD169	plaque count	0.8 µg/mL
Cc1ccc(C)c(C(CC(=O)O)S(=O)(=O)c2cccc[n+]2[O-])c1		cytopathic effect	24 µg/mL
CC1(C)[C@@H](CO)CC[C@@]1(C)Cn1nnc2c(=O)[nH]cnc21	DAVIS	cytopathic effect	>50 µg/mL
Cc1ccc(C)c(C(C)(Cl)S(=O)(=O)c2cccc[n+]2[O-])c1		cytopathic effect	20 µg/mL
CC1(C)[C@@H](CCO)C[C@H]1n1nnc2c(=O)[nH]c(N)nc21	AD169	plaque count	>50 µg/mL

A second listing of 4 rows from above:

SMILES,strain or isolate,read by,value
Nc1nc2c(ncn2COC2COP(=O)(O)OC2)c(=O)[nH]1,AD169,plaque count,0.8 µg/mL
Cc1ccc(C)c(C(Sc2cccc[n+]2[O-])c2ccccc2)c1,,cytopathic effect,>5 µg/mL
Cc1ccc(C)c(C(CC(=O)O)S(=O)(=O)c2cccc[n+]2[O-])c1,,cytopathic effect,24 µg/mL
Nc1nc2c(ccn2[C@H]2CO[C@@H](CO)C2)c(=O)[nH]1,DAVIS,cytopathic effect,>40 µg/mL

An empty or dashed field is not shown. ECn: concentration that inhibits the pathogen or its effect by n%.